Measurements reported in US20220356230A1 (published 2022).

What was measured:
[1] = molecular target: SARS-CoV-2 spike protein (SARS-CoV-2-S) on VSV pseudovirus (VSV-SARS-CoV-2-S) (SARS-CoV-2, UniProt P0DTC2 16-1211); experiment: cell-based or functional assay
[2] = molecular target: high affinity human FcγR3a 176Val allotype receptor (human, UniProt P08637 17-254); experiment: cell-based or functional assay
[3] = molecular target: SARS-CoV-2 spike protein (S-wt, Wuhan-Hu-1, NCBI Accession Number MN908947.3) on VSV-SARS-CoV-2-S … (SARS-CoV-2, UniProt P0DTC2 14-1273); experiment: cell-based or functional assay
[4] = molecular target: SARS-CoV-2 RBD extracellular domain expressed with a C-terminal myc-myc-hexahistidine tag (SARS-COV-2 RBD-MMH) (SARS-CoV-2); experiment: SPR Biacore, mAb supernatant captured by anti-Fc, RBD-MMH injected, 25 C
[5] = molecular target: T1, VLPs expressing VSV only (negative binding control) (vesicular stomatitis virus); experiment: MSD electrochemiluminescence, control VLPs on plate, mAb […], expt 1
[6] = molecular target: T1, VLPs expressing VSV only (negative …); experiment: MSD electrochemiluminescence, control VLPs on plate, mAb […], expt 2

B1: mAb10971 (antibody, V domains shown)
VH: EVQLVESGGGLIQPGGSLRLSCAASGVTVSSNYMSWVRQAPGKGLEWVSVIYSGGSTFYSDSVKGRFSISRDNSKNTLYLQMNSLRAEDTAVYYCARDLYYYGMDVWGQGTTVTVSS
VL: DIQLTQSPSFLSASVGDRVTITCRASQGISTYLAWYQQKPGKAPKLLIYAASTLQSGVPSRFSGSGSGTEFTLTISSLQPEDFATYYCQQLDSYPGLTFGGGTKVEIKR
In the case of B1, the “Neutralization (1:100 dilution)” value [1] is reported as 73.9%.

B2: mAb10966 (antibody, V domains shown)
VH: EVQLVESGGGLVQPGGSLRLSCAASGLTVSSNYMSWVRQAPGKGLEWVSVIYSGGSTFYADSVKGRFTISRDNSKNTLYLQMNSLRPEDTAVYYCAREGRIAATGYGMDVWGQGTTVTVSS
VL: DIQMTQSPSSLSASVGDRVTITCQASQDISNYLNWYQQKPGKAPKLLIYDASNLGTGVPSRFSGSRSGTDFTFTISSLQPEDIATYYCHQYDNLPQTFGPGTKVDIKR
For B2, the “Neutralization (1:100 dilution)” value [1] was 76.2%.

B3: mAb10956 (antibody, V domains shown)
VH: EVQLVESGGGLVQPGGSLRLSCAASGLTVSSNYMSWVRQAPGKGLEWVSVIYSGGSTFYADSVKGRFTISRDNSKNTLYLQMNSLRAEDTAVYYCARDLIKYGMDVWGQGTTVTVSS
VL: DIQMTQSPSSLSASVGDRVTITCQASQDISNYLNWYQQKPGKAPKLLIYDASNLETGVPSRFSGSGSGTDFTFTISSLQPEDIATYYCQQYDNLPPHFGPGTKVDIKR
For B3, the “Neutralization (1:20 dilution)” value [1] was 84.1% and the “Neutralization (1:100 dilution)” value [1] was 61.6%.

B4: mAb10984 (antibody)
heavy: not shown
light: QSVLTQPPSVSAAPGQKVTISCSGSSSNIGNNYVSWYQQLPGTAPKLLIYDNNKRPSGIPDRFSGSKSGTSATLGITGLQTGDEADYYCGTWDSSLSAGVFGGGTKLTVLGQPKAAPSVTLFPPSSEELQANKATLVCLISDFYPGAVTVAWKADSSPVKAGVETTTPSKQSNNKYAASSYLSLTPEQWKSHRSYSCQVTHEGSTVEKTVAPTECS
B4 was tested, and the “ADCC Mean RLU” value [2] was 6780 RLU.

B5: mAb10985 (antibody)
heavy: not shown
light: QSVLTQPPSVSGAPGQRVTISCTGSSSNIGAGYDVHWYQQLPGTAPKLLIYGNSNRPSGVPDRFSGSKSGTSASLAITGLQAEDEADYYCQSYDSSLSGSYVFGTGTKVTVLGQPKAAPSVTLFPPSSEELQANKATLVCLISDFYPGAVTVAWKADSSPVKAGVETTTPSKQSNNKYAASSYLSLTPEQWKSHRSYSCQVTHEGSTVEKTVAPTECS
In the case of B5, the “ADCC Mean RLU” value [2] is reported as 5840 RLU.

B6: mAb10986 (antibody)
heavy: not shown
light: QSVLTQPPSVSGAPGQRVTISCTGSSSNIGTGYDVHWYQQLPGTAPKLLIYGNTNRPSGVPDRFSGSKSGTSASLAITGLQAEDEADYYCQSYDSSLSDSYVFGTGTKVTVLGQPKAAPSVTLFPPSSEELQANKATLVCLISDFYPGAVTVAWKADSSPVKAGVETTTPSKQSNNKYAASSYLSLTPEQWKSHRSYSCQVTHEGSTVEKTVAPTECS
For B6, the “ADCC Mean RLU” value [2] was 6200 RLU.

B7: mAb10987 (antibody)
heavy: not shown
light: QSALTQPASVSGSPGQSITISCTGTSSDVGGYNYVSWYQQHPGKAPKLMIYDVSKRPSGVSNRFSGSKSGNTASLTISGLQSEDEADYYCNSLTSISTWVFGGGTKLTVLGQPKAAPSVTLFPPSSEELQANKATLVCLISDFYPGAVTVAWKADSSPVKAGVETTTPSKQSNNKYAASSYLSLTPEQWKSHRSYSCQVTHEGSTVEKTVAPTECS
With B7 the “ADCC Mean RLU” value [2] was 12000 RLU.

B8: mAb10989 (antibody)
heavy: not shown
light: QSALTQPASVSGSPGQSITISCTGTSSDVGTYNYVSWYQQHPGKAPKLMIFDVSNRPSGVSDRFSGSKSGNTASLTISGLQAEDEADYYCSSFTTSSTVVFGGGTKLTVLGQPKAAPSVTLFPPSSEELQANKATLVCLISDFYPGAVTVAWKADSSPVKAGVETTTPSKQSNNKYAASSYLSLTPEQWKSHRSYSCQVTHEGSTVEKTVAPTECS
For B8, the “ADCC Mean RLU” value [2] was 10200 RLU.

B9: mAb10932 (antibody, V domains shown)
VH: EVQLVESGGGLVQSGGSLRLSCAASGLTVSSNYMSWVRQAPGKGLEWVSVIYSGGSTFYSDSVKGRFTISRHNSKNTLYLQMNSLRAEDTAVYYCARARGDAFDIWGQGTMVTVSS
VL: DIQMTQSPSSLSASVGDRVTITCQASQGISNYLNWYQQKPGKAPKLLISDASNLETGVPSRFSGSGSGTDFTFTISSLQPEDIATYYCQQYDNLRFFTFGPGTKVDIKR
B9 was tested, and the “mAb neutralization potency (IC50 (M))” value [3] was 3.58e-10 M.

B10: mAb10922 (antibody, V domains shown)
VH: EVQLVESGGGLVQPGGSLRLSCAASGFTFSIYEMNWVRQAPGKGLEWVSYITSSGTTIYYADSVKGRFTISRDNAKNSLYLQMNSLRAEDTAVYYCASSSSSGYYFDYWGQGTLVTVSS
VL: not shown
In the case of B10, the “mAb neutralization potency (IC50 (M))” value [3] is reported as 1.21e-10 M.

B11: mAb10930 (antibody, V domains shown)
VH: EVQLVESGGGLVQPGRSLRLSCAASGFTFDDYAMYWVRQAPGKGLEWVSGISWNSGSIGYADSVKGRFTISRDNAKNSLYLQMNSLRAADTALYYCAKDKDWNSRGYYYYGMDVWGQGTTVTVSS
VL: not shown
With B11 the “mAb neutralization potency (IC50 (M))” value [3] was 1.07e-09 M.

B12: mAb10956 (antibody, V domains shown)
VH: EVQLVESGGGLVQPGGSLRLSCAASGLTVSSNYMSWVRQAPGKGLEWVSVIYSGGSTFYADSVKGRFTISRDNSKNTLYLQMNSLRAEDTAVYYCARDLIKYGMDVWGQGTTVTVSS
VL: DIQMTQSPSSLSASVGDRVTITCQASQDISNYLNWYQQKPGKAPKLLIYDASNLETGVPSRFSGSGSGTDFTFTISSLQPEDIATYYCQQYDNLPPHFGPGTKVDIKR
With B12 the “mAb neutralization potency (IC50 (M))” value [3] was 1.28e-10 M.

B13: mAb10966 (antibody, V domains shown)
VH: EVQLVESGGGLVQPGGSLRLSCAASGLTVSSNYMSWVRQAPGKGLEWVSVIYSGGSTFYADSVKGRFTISRDNSKNTLYLQMNSLRPEDTAVYYCAREGRIAATGYGMDVWGQGTTVTVSS
VL: DIQMTQSPSSLSASVGDRVTITCQASQDISNYLNWYQQKPGKAPKLLIYDASNLGTGVPSRFSGSRSGTDFTFTISSLQPEDIATYYCHQYDNLPQTFGPGTKVDIKR
In the case of B13, the “mAb neutralization potency (IC50 (M))” value [3] is reported as 1e-10 M.

B14: mAb10971 (antibody, V domains shown)
VH: EVQLVESGGGLIQPGGSLRLSCAASGVTVSSNYMSWVRQAPGKGLEWVSVIYSGGSTFYSDSVKGRFSISRDNSKNTLYLQMNSLRAEDTAVYYCARDLYYYGMDVWGQGTTVTVSS
VL: DIQLTQSPSFLSASVGDRVTITCRASQGISTYLAWYQQKPGKAPKLLIYAASTLQSGVPSRFSGSGSGTEFTLTISSLQPEDFATYYCQQLDSYPGLTFGGGTKVEIKR
With B14 the “mAb neutralization potency (IC50 (M))” value [3] was 1.55e-10 M.

B15: mAb10932 (antibody, V domains shown)
VH: EVQLVESGGGLVQSGGSLRLSCAASGLTVSSNYMSWVRQAPGKGLEWVSVIYSGGSTFYSDSVKGRFTISRHNSKNTLYLQMNSLRAEDTAVYYCARARGDAFDIWGQGTMVTVSS
VL: DIQMTQSPSSLSASVGDRVTITCQASQGISNYLNWYQQKPGKAPKLLISDASNLETGVPSRFSGSGSGTDFTFTISSLQPEDIATYYCQQYDNLRFFTFGPGTKVDIKR
With B15 the “Neutralization (1:100 dilution)” value [1] was 68%.

B16: mAb10922 (antibody, V domains shown)
VH: EVQLVESGGGLVQPGGSLRLSCAASGFTFSIYEMNWVRQAPGKGLEWVSYITSSGTTIYYADSVKGRFTISRDNAKNSLYLQMNSLRAEDTAVYYCASSSSSGYYFDYWGQGTLVTVSS
VL: not shown
For B16, the koff [4] was 0.002 s⁻¹, the kon [4] was 391000 M⁻¹ s⁻¹ and the “t½” value [4] was 5.8 min.

B17: mAb10930 (antibody, V domains shown)
VH: EVQLVESGGGLVQPGRSLRLSCAASGFTFDDYAMYWVRQAPGKGLEWVSGISWNSGSIGYADSVKGRFTISRDNAKNSLYLQMNSLRAADTALYYCAKDKDWNSRGYYYYGMDVWGQGTTVTVSS
VL: not shown
In the case of B17, the “t½” value [4] is reported as 6.2 min.

B18: mAb10938 (antibody, V domains shown)
VH: EVQLVESGGGLVQPGGSLRLSCAVSGFTVSSNYMSWVRQAPGKGLEWVSLIYSGGSTFYADSVKGRFTISRHNSKNTLYLQMNSLRAEDTAVYYCAREGGYSYDYNYWGQGTLVTVSS
VL: DIQMTQSPSSLSASVGDRVTITCQASQDIRNYLNWYQQKPGKAPKLLIYDASNLETGVPSRFSGIGSGTDFTFTISSLQPEDIATYYCQQYDNLPITFGQGTRLEIKR
With B18 the “t½” value [4] was 33.2 min.

B19: mAb10966 (antibody, V domains shown)
VH: EVQLVESGGGLVQPGGSLRLSCAASGLTVSSNYMSWVRQAPGKGLEWVSVIYSGGSTFYADSVKGRFTISRDNSKNTLYLQMNSLRPEDTAVYYCAREGRIAATGYGMDVWGQGTTVTVSS
VL: DIQMTQSPSSLSASVGDRVTITCQASQDISNYLNWYQQKPGKAPKLLIYDASNLGTGVPSRFSGSRSGTDFTFTISSLQPEDIATYYCHQYDNLPQTFGPGTKVDIKR
For B19, the “t½” value [4] was 26.3 min.

B20: mAb10913 (antibody, V domains shown)
VH: EVQLVESGGGLVQPGGSLRLSCAASGFTFRNYEMNWVRQAPGKGLEWVSYITSSGSTMYYADSVKGRFTISRDNAKNSLYLQMNSLRAEDTAVYYCARDGFYYYYAMDVWGQGTTVTVSS
VL: QSVLTQPPSVSAAPGQKVTISCSGSSSNIGNNYVSWYQQLPGTAPKLLIYDNNKRPSGIPDRFSGSKSGTSATLGITGLQTGDEADYYCGTWDSSLSVGRVFGTGTKVTVLG
B20 was tested, and the “Antibody Binding Signal (RLU)” value [5] was 51 RLU.

B21: mAb10954 (antibody, V domains shown)
VH: EVQLVESGGGLVQPGGSLRLSCAASGITVSSNYMSWVRQAPGKGLEWVSLIYSGGSTYYADSVKGRFTISRDNSKNTLYLQMNSLRVEDTAVYYCARDHGMAAAGYNYWGQGTLVTVSS
VL: DIQMTQSPSSLSASVGDRVTITCQASQDINKYLNWYQQKPGKAPKLLIYDASNLETGVPSRFSGSGSGTDFTFTINSLQPEDFATYFCQQYDNLPPAFGQGTKVEIKR
For B21, the “Antibody Binding Signal (RLU)” value [6] was 48 RLU.
